{
  "sequences": {"note": "Amino acid sequences for entries named in this document (tags omitted). Residues count along the entry.", "UniProt C6KTB4, 1-997": "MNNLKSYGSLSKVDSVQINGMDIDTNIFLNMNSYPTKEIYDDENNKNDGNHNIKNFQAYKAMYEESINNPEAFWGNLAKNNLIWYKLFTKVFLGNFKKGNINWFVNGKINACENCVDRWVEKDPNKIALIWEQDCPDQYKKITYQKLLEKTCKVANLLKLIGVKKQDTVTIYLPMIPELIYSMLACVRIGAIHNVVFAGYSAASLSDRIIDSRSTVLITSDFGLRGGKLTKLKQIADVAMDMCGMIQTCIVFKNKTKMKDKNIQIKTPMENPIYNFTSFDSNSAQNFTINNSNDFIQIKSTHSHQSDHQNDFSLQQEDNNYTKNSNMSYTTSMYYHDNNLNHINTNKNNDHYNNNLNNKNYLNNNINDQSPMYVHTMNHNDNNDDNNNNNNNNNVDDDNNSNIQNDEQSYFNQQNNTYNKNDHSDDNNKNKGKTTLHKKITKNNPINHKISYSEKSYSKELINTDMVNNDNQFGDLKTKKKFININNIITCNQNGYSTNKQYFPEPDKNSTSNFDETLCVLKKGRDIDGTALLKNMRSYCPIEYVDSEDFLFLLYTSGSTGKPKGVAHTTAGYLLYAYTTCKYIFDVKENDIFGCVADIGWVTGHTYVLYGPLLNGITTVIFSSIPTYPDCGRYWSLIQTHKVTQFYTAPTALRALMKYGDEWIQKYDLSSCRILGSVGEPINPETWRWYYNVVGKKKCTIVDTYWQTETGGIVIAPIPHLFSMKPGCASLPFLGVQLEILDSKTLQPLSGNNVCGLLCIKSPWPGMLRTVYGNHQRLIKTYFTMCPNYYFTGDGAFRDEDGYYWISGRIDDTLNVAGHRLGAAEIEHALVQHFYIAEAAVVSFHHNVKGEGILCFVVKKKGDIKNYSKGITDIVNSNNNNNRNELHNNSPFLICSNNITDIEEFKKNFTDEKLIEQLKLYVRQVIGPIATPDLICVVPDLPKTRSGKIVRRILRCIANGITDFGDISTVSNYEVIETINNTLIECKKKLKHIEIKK"},
  "source": "paper PMC9021288",
  "about": "(Nature Communications, 2022)",
  "molecular_target": "wild-type (T648) AcAS (Plasmodium falciparum, UniProt C6KTB4)",
  "test": "AcAS activity assay (14C-acetate), wild-type",
  "type": "biochemical",
  "details": "log concentration (M) -5.0655; listed as CoA-iPanAm",
  "note": "The source holds more than one record for some entries. The other results are left out here. An entry can have further records. Values that stand side by side appear to be repeats on other runs, samples or individuals.",
  "data": [
    {"smiles": "C[C@@H](CNC(=O)[C@H](O)C(C)(C)COP(=O)(O)OP(=O)(O)OC[C@H]1O[C@@H](n2cnc3c(N)ncnc32)[C@H](O)[C@@H]1OP(=O)(O)O)NC(=O)c1cc(F)c(F)cc1F", "values": [
      {"measurement": "AcAS activity normalized to no drug control", "value": "5.721 and 2.463"}
    ]}
  ]
}
